A mixed list of measured activities; the numbers were collected in NIAID ChemDB.

All rows: target-level tests; organism: HIV-1; target: Protease; read by: HPLC; read-out: IC50

Blank or dashed fields: not listed here. Neighbouring rows are from separate reports. ICn is the concentration giving n% inhibition.

structure | conditions | changes | result
CC(C)c1ccccc1SC1=C(O)CC(CCCC(=O)N2CCOCC2)(c2ccccc2)OC1=O | pH 4.7 |  | 0.186 µM
COc1cc(-c2ccc(N=Nc3ccc4c(S(=O)(=O)O)cc(S(=O)(=O)O)c(N)c4c3O)c(OC)c2)ccc1N=Nc1ccc2c(S(=O)(=O)O)cc(S(=O)(=O)O)c(N)c2c1O |  |  | 1 µM
CC(C)[C@H](N)C(=O)N[C@@H](Cc1ccccc1)[C@H](O)CNC[C@@H](O)[C@H](Cc1ccccc1)NC(=O)[C@@H](N)C(C)C | pH 5.5 |  | >10 µM
CC(C)(C)NC(=O)[C@@H]1CCCN1C(=O)[C@@H](O)[C@H](Cc1ccccc1)NC(=O)[C@H](CC(N)=O)NC(=O)COc1ccc2ccccc2c1 |  |  | 0.012 µM
CC(C)(C)OC(=O)N[C@@H](Cc1ccccc1)[C@H](O)CNC[C@@H](O)[C@H](Cc1ccccc1)NC(=O)C(NC(=O)OCc1ccccc1)C(C)(C)CO | pH 5.5 |  | <10 µM
CSC[C@H](NC(=O)COc1cccc(Nc2ccccc2)c1)C(=O)N[C@@H](Cc1ccccc1)[C@H](O)C(=O)N1CSC(C)(C)[C@H]1C(=O)NC(C)(C)C |  |  | 0.0027 µM
CC(C)(C)OC(=O)N[C@@H](Cc1ccccc1)[C@H](O)CNC[C@@H](O)[C@H](Cc1ccccc1)NC(=O)[C@@H](O)C(C)(C)C | pH 5.5 |  | <10 µM
CC(C)c1ccccc1SC1=C(O)CC(CCC(=O)N2CCN(C(=O)OC(C)(C)C)CC2)(c2ccccc2)OC1=O | pH 4.7 |  | 1.27 µM
Nc1ccc2c(O)c(N=Nc3ccc(N=Nc4ccc(N=Nc5cc(S(=O)(=O)O)c6cccc(S(=O)(=O)O)c6c5)c5ccccc45)c4ccc(S(=O)(=O)O)cc34)c(S(=O)(=O)O)cc2c1 |  |  | >100 µM
COc1ccc(Cc2c(O)c3ccccc3oc2=O)cc1OC | pH 5.2 |  | 84 µM
CC(C)c1ccccc1SC1=C(O)CC(CCCCC(=O)NCCc2ccccc2)(c2ccccc2)OC1=O | pH 4.7 |  | 0.071 µM
CCC(=O)N[C@H](C(=O)N[C@@H](Cc1ccccc1)[C@H](O)CNC[C@@H](O)[C@H](Cc1ccccc1)NC(=O)OC(C)(C)C)C(C)C | pH 5.5 |  | <10 µM
CC(C)[C@H](NC(=O)N(C)Cc1ccccn1)C(=O)N[C@@H](Cc1ccccc1)[C@H](O)[C@H](O)[C@H](Cc1ccccc1)NC(=O)[C@@H](NC(=O)N(C)Cc1ccccn1)C(C)C |  |  | 0.0012 µM
Nc1ccc2cc(S(=O)(=O)O)cc(O)c2c1N=Nc1ccc(NC(=O)Nc2ccc(N=Nc3c(N)ccc4cc(S(=O)(=O)O)cc(O)c34)c(S(=O)(=O)O)c2)cc1S(=O)(=O)O |  |  | 200 µM
COCCOc1ccc(C[C@H](NC(=O)OC(C)(C)CO)[C@H](O)CNC[C@@H](O)[C@H](Cc2ccccc2)NC(=O)OC(C)(C)C)cc1 | pH 5.5 |  | <10 µM
CC(C)c1ccccc1SC1=C(O)CC(CCCC(=O)Nc2ccccc2)(c2ccccc2)OC1=O | pH 4.7 |  | 0.429 µM
COC(=O)N[C@H](C(=O)N[C@@H](Cc1ccccc1)[C@H](O)CNC[C@@H](O)[C@H](Cc1ccccc1)NC(=O)[C@@H](NC(=O)OC)C(C)(C)C)C(C)(C)C | pH 5.5 |  | <10 µM
CC(C)CN(C[C@@H](O)[C@H](Cc1ccccc1)NC(=O)[C@H](CC(N)=O)NC(=O)c1ccc2ccccc2n1)C(=O)NC(C)(C)C |  | PR-A71T | 0.0022 µM
COc1ccc(Cc2c(O)c3cccc(C)c3oc2=O)cc1OC | pH 5.2 |  | 23 µM
CC(C)(C)OC(=O)N[C@@H](Cc1ccccc1)[C@H](O)CNC[C@@H](O)[C@H](Cc1ccccc1)NC(=O)OC(C)(C)CCCNCc1ccccc1 | pH 5.5 |  | 10 µM
O=c1oc(-c2ccccc2)cc(O)c1Cc1ccccc1 | pH 5.2 |  | 78 µM
CC(C)c1ccccc1SC1=C(O)CC(CCCCC(=O)O)(c2ccccc2)OC1=O | pH 4.7 |  | 0.0018 µM
CC(C)(C)OC(=O)N[C@@H](Cc1ccccc1)[C@H](O)CNC[C@@H](O)[C@H](Cc1ccccc1)NC(=O)OCc1ccccc1 | pH 5.5 |  | <10 µM
CC[C@H](C)[C@H](NC(=O)[C@@H]1CCCN1C(=O)[C@@H](O)[C@H](Cc1ccccc1)NC(=O)[C@H](CC(N)=O)NC(=O)[C@H](Cc1ccccc1)NC(=O)[C@@H](N)CO)C(=O)N[C@H](C(N)=O)C(C)C |  |  | 0.94 µM
Nc1c(N=Nc2ccc([N+](=O)[O-])cc2)c(S(=O)(=O)O)cc2cc(S(=O)(=O)O)cc(O)c12 |  |  | >100 µM
CCC(C)(C)NC(=O)[C@@H]1CCCN1C(=O)[C@@H](O)[C@H](Cc1ccccc1)NC(=O)[C@H](CC(N)=O)NC(=O)OCc1ccccc1 |  |  | 0.572 µM
CCN(CC)c1ccc2cc3ccc(=[N+](CC)CC)cc-3oc2c1 |  |  | 17 µM
O=c1oc(-c2ccccc2)cc(O)c1Sc1ccccc1 | pH 5.2 |  | 3.5 µM

Again, the opening 3 rows:

structure | conditions | changes | result
CC(C)c1ccccc1SC1=C(O)CC(CCCC(=O)N2CCOCC2)(c2ccccc2)OC1=O | pH 4.7 |  | 0.186 µM
COc1cc(-c2ccc(N=Nc3ccc4c(S(=O)(=O)O)cc(S(=O)(=O)O)c(N)c4c3O)c(OC)c2)ccc1N=Nc1ccc2c(S(=O)(=O)O)cc(S(=O)(=O)O)c(N)c2c1O |  |  | 1 µM
CC(C)[C@H](N)C(=O)N[C@@H](Cc1ccccc1)[C@H](O)CNC[C@@H](O)[C@H](Cc1ccccc1)NC(=O)[C@@H](N)C(C)C | pH 5.5 |  | >10 µM